Experimental data from EP3995502A1, “4-HYDROXYPHENYL PHOSPHONIUM SALTS WITH ANTI-PARASITIC PROPERTIES” (priority 2019, dated 2021).

Tested on: T. brucei B48
Experiment: In vitro trypanocidal activity, drug-resistant strain B48
Type: cell-based, T. b. brucei
Conditions: resistance factor (EC50 T. b. B48 / EC50 T. b. s427)

Work on `O=C(CCCCCCCCCCCCCCC[P+](c1ccccc1)(c1ccccc1)c1ccccc1)c1ccc(O)cc1O` yielded an RF of 1.27 µM.
